Measured values from several laboratories, pooled; numbers as filed in NIAID ChemDB.

Shared fields: tests in culture

ECn: concentration that inhibits the pathogen or its effect by n%.

smiles,species,strain,changes,cell line,method,conditions,read-out,tested at,result
C#C[C@]1(CO)O[C@@H](n2cnc3c(N)nc(F)nc32)CC1O,HIV-2,ROD9,Q151M M184V,MAGIC-5A,β-galactosidase / absorbance,,EC50,,0.0059 µM
CC(C)=CCN1Cc2cc(Cl)cc3[nH]c(=S)n(c23)C[C@@H]1C,HIV-1,HXB2,RT-L74V,HT4 + HT4 LacZ-1,plaque count,,EC50,,0.16 µM
O=C(O)P(=O)(O)O,HIV-1,IIIB,,PBL,,14 d,inhibition,64 µM,0%
CCc1c(C(=O)c2cc(C)cc(C)c2)n(CC2CC=CC2)c(=O)[nH]c1=O,HIV-2,ROD,,CEM + CEM-SS,cytopathic effect / XTT,,EC50,,0.17 µM
c1cc(CN2CCCNCCNCCCNCC2)ccc1CN1CCCNCCNCCCNCC1,HIV-1,CM7 CLADE C R5,,PBMC,p24,,inhibition,0.5 µM,3%
Nc1nc(NC2CC2)c2ncn([C@H]3C=C[C@@H](CO)C3)c2n1,HIV-1,Recombinant,RT-M184V,HeLa,luciferase,,fold resistance,,4.7
Cc1cn([C@H]2C[C@H](N=[N+]=[N-])[C@@H](CO)O2)c(=O)[nH]c1=O,HIV-2,1010,,PBMC,ELISA,,EC50,,0.04 µM
Cn1c2ccccc2c2c1cc(C#N)c(=O)n2-c1ccc([N+](=O)[O-])cc1,HIV-1,Recombinant,RT-M41L V118I M184V,HeLa,luciferase,,EC50,,0.44 µM
CC(C)CN(C[C@@H](O)[C@H](Cc1ccccc1)NC(=O)[C@H](CC(N)=O)NC(=O)c1ccc2ccccc2n1)C(=O)NC(C)(C)C,HIV-1,NL4-3,PR-L63P V82T I84V,MT-4,p24,,EC95,,1.5 µM
Nc1ncnc2c1ncn2[C@H]1CC[C@@H](CO)O1,HIV-2,LAV-2,,U-937,virus yield,,EC95,,1 µM
Cc1cn([C@H]2C[C@H](N=[N+]=[N-])[C@@H](CO)O2)c(=O)[nH]c1=O,HIV-1,NRTI resistant,RT-T69K K70G V75I F77L F116Y Q151M M184V,HeLa,luciferase,,EC50,,4.5 µM
O=C1N(Cc2ccc(CO)cc2)[C@H](Cc2ccccc2)[C@H](O)[C@@H](O)[C@@H](Cc2ccccc2)N1Cc1ccc(CO)cc1,HIV-1,NL4-3,PR-L10R M46I L63P,MT-4,p24,,EC95,,0.2 µM
Cc1ccnc2c1NC(=O)c1cccnc1N2C1CC1,HIV-1,,RT-L74V Y181C,MT-4,,,EC95,,>3 µM
Cc1cc(S(N)(=O)=O)ccc1NC(=O)COc1ccc(Cl)cc1C(=O)c1cc(Cl)cc(C#N)c1,HIV-1,NNRTI-resistant (RT K103N Y181C),RT-K103N Y181C,MAGI,β-galactosidase,,fold resistance,,2.69
O=C1N(Cc2ccc(CO)cc2)[C@H](Cc2ccccc2)[C@H](O)[C@@H](O)[C@@H](Cc2ccccc2)N1Cc1ccc(CO)cc1,HIV-1,Clinical isolate L,,PBMC,p24,,inhibition,0.18 µM,90%

Repeating the final 2 entries:

{"smiles": "Cc1cc(S(N)(=O)=O)ccc1NC(=O)COc1ccc(Cl)cc1C(=O)c1cc(Cl)cc(C#N)c1", "species": "HIV-1", "strain": "NNRTI-resistant (RT K103N Y181C)", "changes": "RT-K103N Y181C", "cell line": "MAGI", "method": "β-galactosidase", "read-out": "fold resistance", "result": "2.69"}
{"smiles": "O=C1N(Cc2ccc(CO)cc2)[C@H](Cc2ccccc2)[C@H](O)[C@@H](O)[C@@H](Cc2ccccc2)N1Cc1ccc(CO)cc1", "species": "HIV-1", "strain": "Clinical isolate L", "cell line": "PBMC", "method": "p24", "read-out": "inhibition", "tested at": "0.18 µM", "result": "90%"}

Fold resistance has wild type as its base. An empty or dashed field is not shown. Rows are shuffled and stem from different studies. Inhibition is in % at the dose shown (toxicity tests: loss of growth or viability).